Results of unrelated studies side by side (data: NIAID ChemDB).

Shared fields: growth or infection tests; agent: HIV-1; cells: MT-4; read-out: fold resistance

Lines come from different laboratories, so protocols vary. Blank or dashed fields: not listed here. Fold resistance: result on the changed form divided by that on wild type.

| compound | strain | mutations | method | conditions | result |
|---|---|---|---|---|---|
| COC(=O)NCCCC(C)(C)CN(C[C@@H](O)[C@H](Cc1ccccc1)NC(=O)O[C@H]1CO[C@H]2OCC[C@H]21)S(=O)(=O)c1cccc(N)c1 | Multi-PI-resistant EP13 | PR-M46I L63P A71V V82F/L I84V | cytopathic effect / propidium iodide | - | 2 |
| CCc1cc(NCc2nc3c(Cl)ccc(Cl)c3o2)c(=O)[nH]c1C | MFE30(RT-P236L) | RT-P236L | antigen | - | <0.1 |
| COC(=O)NCCCC(C)(C)CN(C[C@@H](O)[C@H](Cc1ccccc1)NC(=O)O[C@H]1CO[C@H]2OCC[C@H]21)S(=O)(=O)c1ccc2c(c1)OCO2 | Multi-PI-resistant EP13 | PR-M46I L63P A71V V82F/L I84V | cytopathic effect / propidium iodide | - | 8.1 |
| CC(C)(C)NC(=O)[C@@H]1C[C@@H]2CCCC[C@@H]2CN1C[C@@H](O)[C@H](Cc1ccccc1)NC(=O)[C@H](CC(N)=O)NC(=O)c1ccc2ccccc2n1 | NL4-3.C7 (PR L10F M46I I84V) | PR-L10F M46I I84V | p24 | - | 1 |
| Cc1cn([C@@H]2O[C@H](CO[Si](C)(C)C(C)(C)C)C3(OS(=O)(=O)C=C3N)[C@H]2O[Si](C)(C)C(C)(C)C)c(=O)n(C)c1=O | Recombinant mutant | RT-A98S | cytopathic effect / MTT | - | 0.2 |
| Nc1ccn([C@H]2CC[C@@H](CO)O2)c(=O)n1 | HXB2-D184 (RT-M184V) | RT-M184V | RT activity | - | 5.45 |
| COC(=O)NCCC(C)(C)CN(C[C@@H](O)[C@H](Cc1ccccc1)NC(=O)O[C@H]1CO[C@H]2OCC[C@H]21)S(=O)(=O)c1ccc2c(c1)OCO2 | Multi-PI-resistant EP13 | PR-M46I L63P A71V V82F/L I84V | cytopathic effect / propidium iodide | - | 15.7 |
| Nc1nc(=O)n([C@@H]2CS[C@H](CO)O2)cc1F | RF | RT-M184I | cytopathic effect / MTT | - | 160 |
| CCCCCCCSc1nsc(NC(=O)Nc2ccccc2)n1 | NL4-3 | RT A62V 69SS K70R E79K V118I M184V E203K L210W T215Y | cytopathic effect | - | 1.03 |
| Cc1cc(C#N)cc(C)c1Oc1nc(Nc2ccc(C#N)cc2)ncc1SCC(=O)N1CCSCC1 | - | E138K | MTT | - | 1.2 |
| O=C1c2ccccc2C(=O)N1CCOC(=S)N(C(=O)c1cccs1)c1ccc(Cl)cc1 | A17 | RT-K103N Y181C | cytopathic effect / MTT | - | >12500 |
| CCc1c(Sc2cc(C)cc(C)c2)n(COCCOP(=O)(O)OC[C@H]2O[C@@H](n3cc(C)c(=O)[nH]c3=O)C[C@@H]2N=[N+]=[N-])c(=O)[nH]c1=O | IIIB MKC-442-resistant (RT Y181C) | RT-Y181C | cytopathic effect / MTT | - | 1 |
| Cc1cn([C@H]2C[C@H](N=[N+]=[N-])[C@@H](CO)O2)c(=O)[nH]c1=O | NL4-3 | RT-K103N Y181C | cytopathic effect | - | 0.6 |
| CC(C)=CCN1Cc2cc(Cl)cc3[nH]c(=S)n(c23)C[C@@H]1C | IIIB | RT-E138K | cytopathic effect / MTT | - | 3 |
| O=C1c2ccccc2C(=O)N1CCOC(=S)N(C(=O)c1ccco1)c1ccc([N+](=O)[O-])cc1 | IIIB | RT-K103R V179D P225H | cytopathic effect / MTT | - | >12500 |
| CCc1c(Sc2cc(C)cc(C)c2)n(COCCO)c(=O)[nH]c1=O | IIIB | RT-D67N K70R K172R | cytopathic effect / MTT | - | 2 |
| O=C1c2ccccc2C(=O)N1CCOC(=S)N(C(=O)c1cccnc1Cl)c1ccc(Cl)cc1 | A17 | RT-K103N Y181C | cytopathic effect / MTT | - | >20000 |
| CC(C)CN(C[C@@H](O)[C@H](Cc1ccccc1)NC(=O)O[C@H]1CO[C@H]2OCC[C@H]21)S(=O)(=O)c1cccc(N)c1 | PI-resistant (PR L10I M46I A71V I84V) M1 | PR-L10I M46I A71V I84V | cytopathic effect / MTT | - | 34 |
| O=C1N(Cc2ccc(CO)cc2)[C@H](COc2ccccc2)[C@H](O)[C@@H](O)[C@@H](COc2ccccc2)N1Cc1ccc(CO)cc1 | IIIB | PR-V82A | cytopathic effect / XTT | - | 1.43 |
| O=c1[nH]cnc2c1ncn2[C@H]1CC[C@@H](CO)O1 | RF | RT-M184I | cytopathic effect / MTT | - | 1.61 |
| CC(=O)c1ccc(C)cc1NC(C(N)=O)c1c(Cl)cccc1Cl | IIIB | RT-E138K | cytopathic effect / MTT | - | 26 |
| CC(C)=CCn1cc2c(c1)S(=O)(=O)c1cc(Cl)ccc1NC2=S | Clinical isolate | RT-Y181C | cytopathic effect / MTT | - | ≥42.9 |
| CC(C)(CCCN)CN(C[C@@H](O)[C@H](Cc1ccccc1)NC(=O)O[C@H]1CO[C@H]2OCC[C@H]21)S(=O)(=O)c1ccc2c(c1)OCO2 | Multi-PI-resistant EP13 | PR-M46I L63P A71V V82F/L I84V | cytopathic effect / propidium iodide | - | 1.46 |
| Cc1cccc(C)c1CNC(=O)[C@H]1N(C(=O)[C@@H](O)C[C@@H](Cc2ccccc2)C(=O)N[C@H]2c3ccccc3C[C@H]2O)CSC1(C)C | - | PR-K60C | p24 | - | 4 |
| CC(C)=CCn1cc2c(c1)S(=O)(=O)c1cc(Cl)ccc1NC2=O | Clinical isolate | RT-Y181C | cytopathic effect / MTT | - | ≥100 |
| CC(C)CN(C[C@@H](O)[C@H](Cc1ccccc1)NC(=O)O[C@H]1CCOC1)S(=O)(=O)c1ccc(N)cc1 | NL4-3 | PR-D30N N88D | p24 | - | 0.5 |
| O=c1[nH]cnc2c1ncn2[C@H]1CC[C@@H](CO)O1 | IIIB MKC-442-resistant (RT Y181C) | RT-Y181C | cytopathic effect / MTT | - | 0.489 |
| CC(=O)Oc1ccc(/C=C/C(=O)O[C@H](C(=O)O)[C@H](OC(=O)/C=C/c2ccc(OC(C)=O)c(OC(C)=O)c2)C(=O)O)cc1OC(C)=O | NL4-3 | AMD3100-resistant | - | - | >11.9 |
| CCn1c(=O)c(C)cn([C@@H]2O[C@H](CO[Si](C)(C)C(C)(C)C)C3(OS(=O)(=O)C=C3N)[C@H]2O[Si](C)(C)C(C)(C)C)c1=O | HXB2 (RT E138A S162C E169D T200A L214F) Clinical isolate | RT-E138A S162C E169D T200A L214F | cytopathic effect / MTT | - | 90 |
| CNC(=O)NCCCC(C)(C)CN(C[C@@H](O)[C@H](Cc1ccccc1)NC(=O)O[C@H]1CO[C@H]2OCC[C@H]21)S(=O)(=O)c1ccc2c(c1)OCO2 | Multi-PI-resistant EP13 | PR-M46I L63P A71V V82F/L I84V | cytopathic effect / propidium iodide | - | 2.89 |
| O=C1c2ccccc2C(=O)N1CCOC(=S)N(C(=O)c1ccco1)c1ccc(Cl)cc1 | A17 | RT-K103N Y181C | cytopathic effect / MTT | - | >14300 |
| CC(C)=CCN1c2cc(Cl)cc3[nH]c(=S)n(c23)C[C@@H]1C | - | RT-L74V Y181C | - | - | >30 |
| Nc1ccn([C@H]2CC[C@@H](CO)O2)c(=O)n1 | Clinical isolate | RT-I50V K70R I135V T215Y | - | clinical isolate | 1.875 |

For reference, 4 entries again:

compound,strain,mutations,method,conditions,result
Nc1nc(=O)n([C@@H]2CS[C@H](CO)O2)cc1F,RF,RT-M184I,cytopathic effect / MTT,-,160
CCc1cc(NCc2nc3c(Cl)ccc(Cl)c3o2)c(=O)[nH]c1C,MFE30(RT-P236L),RT-P236L,antigen,-,<0.1
CC(C)(CCCN)CN(C[C@@H](O)[C@H](Cc1ccccc1)NC(=O)O[C@H]1CO[C@H]2OCC[C@H]21)S(=O)(=O)c1ccc2c(c1)OCO2,Multi-PI-resistant EP13,PR-M46I L63P A71V V82F/L I84V,cytopathic effect / propidium iodide,-,1.46
CC(=O)c1ccc(C)cc1NC(C(N)=O)c1c(Cl)cccc1Cl,IIIB,RT-E138K,cytopathic effect / MTT,-,26